For orientation: inhibition means the change of the read-out against control, counted positive when it falls.

This is a selection; strong and weak results do not stand in their true shares. Activity calls are given as the source filed them.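 The calls were made as follows: active = inhibition at or above 50% at 10 µM; inactive = inhibition below 50%.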

The nature of this assay: inhibitors of Sendai virus-induced IRF3 signaling, primary screen, TLR/RLR signaling modifier project, cell-based, Sendai virus stimulus, luciferase, 10K MLSCN set (AID 602276).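 Also: firefly luciferase from ISG56 promoter only with Renilla not read in this screen; 0% = Sendai virus plus DMSO and 100% = medium plus DMSO without virus.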 As to conditions: HEK293 RL24 IRF3 luciferase reporter, at 10 µM, hits give high values. A general note: In a reporter assay the amount or activity of a reporter protein is the signal.
Turning to `COP1(=S)c2c(C)nn(CCC#N)c2N=C(c2ccc(F)cc2)N1C` (stereo not given), the inhibition was inactive: 10.1%. As to `O=C(COc1ccccc1)OC1CN2CCC1CC2` (stereo not given), the inhibition was inactive: -4.7%. For `CCOP1(=S)c2c(C)nn(CCC#N)c2N=C(c2ccccc2F)N1C` (stereo not given) the value was inactive: -6.36%; for `Cc1nn(-c2ccccc2)c2c1P(=O)(N1CCOCC1)N(C)C(c1ccccc1)=N2` (stereo not given), inactive: -10.5%.

On to `O=P(Nc1nccs1)(c1ccccc1)c1ccccc1`, for which the inhibition was inactive: 7.15%.
